# Measured values published in the supplement of paper PMC12637763.
# Residue numbers refer to the chain shown, from its start. The list shows a part of the results. Env chains of viruses from a treatment-interruption trial, translated from the printed DNA. IC50 / IC80 of two broadly neutralizing antibodies; lower = more sensitive virus; >50 µg/ml means not reached and <0.001 µg/ml is below the lowest dose. No active / inactive call.
# B1: HIV-1 Env, rebound clone, antibody arm (protein)
# chain: MKVKGTKRNYQHLWRWGIMLLGILMICSAADKFWVTVYYGVPVWKEASTTLFCASDAKAYDTEVHNVWATHACVPTDPNPQEIFLENVTEDFNMWENNMVEQMHEDVISLWDQSLKPCVKLTPLCVTLNCTDLKNVTESGNATATGGNNNRTVENEGEIKNCSFNITTSIRDKVTKEYALFNALDVVPIEDSNDNSSNGGNYSSYRMIHCNTSTITQACPKVSFEPIPIHYCTPAGFAILKCNNNTFSGKGPCNNVSTVQCTHGIRPVVSTQLLLNGSLAEEEIVIRSKNFSQNTDIIIVQLNESVIINCTRPNNNTRRGVHIGPGRAFYATGDIIGDIRRAYCNISRAEWNKTLGRVAEKLREQFPNKTIVFNQSSGGDPEIATHSFNCGGEFFYCYTSKLFNSTWNDTEGKVEEGDGNITFPCRIKQIINLWQEVGKAMYAPPISGIIKCESNITGLLLTRDGGNDNNTNEIFRPWGGNMKDNWRSELYKYKVVKIEPIGVAPTKAKRRVVQREKRAVGALGAMFPGFLGAAGSTMGAASLTLTVQARLLLSGIVQQQNNLLRAIEAQQHMLQLTVWGIKQLQARVLAVERYLRDQQLLGIWGCSGKLICTTAVPWNDSWSNNKTYDDIWENMTWMAWEKEIDNYTGIIYNLLEISQNQQEKNEQELLELDKWASLWNWFDITHWLWYIKIFIMIVGGLIGLRIVFTVLSIINRVRQGYSPLSFQTHLLTSRGPDRPEGIEEEGGEQDRGRSIRLVDGFLALFWDDLRSLCLFSYHRLRDLLLIAARIVELLGRRGWGILKYWWSLLQYWSQELNKSAISLLNATAIAVAEGTDRIIEVVQRAGRAILHIPVRIRQGLERALQ
# B2: HIV-1 Env, rebound clone, antibody arm (protein)
# chain: B1 chain with N201D, R426K, P528L
# B3: HIV-1 Env, rebound clone, antibody arm (protein)
# chain: B1 chain with N201D, Y398H, P528L
# B4: HIV-1 Env, rebound clone, antibody arm (protein)
# chain: B1 chain with G200S, N201D, P528L
# B5: HIV-1 Env, rebound clone, antibody arm (protein)
# chain: B1 chain with N201D, R515G, P528L
# B6: HIV-1 Env, rebound clone, antibody arm (protein)
# chain: B1 chain with M526V, P528L, E840K
# Target: antibody 10-1074
# Assay: neutralization IC50; higher = virus less sensitive to the antibody
# Method: (§1)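 Pseudovirus bearing the Env chain mixed with antibody, from 50 µg/ml in fivefold dilutions, on TZM-bl reporter cells, in duplicate.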
row,Binder,neutralization IC50 [µg/mL]
1,B1,0.278
2,B2,0.072
3,B3,0.098
4,B4,0.128
5,B5,0.064
6,B6,0.186

# Target: antibody 3BNC117
# Assay: as above
# Method: as §1
row,Binder,neutralization IC50 [µg/mL]
1,B1,> 50
2,B2,> 50
3,B3,> 50
4,B4,> 50
5,B5,> 50
6,B6,> 50

# Target: antibody 10-1074
# Assay: neutralization IC80; higher = virus less sensitive to the antibody
# Method: as §1
row,Binder,neutralization IC80 [µg/mL]
1,B1,1.22
2,B2,0.366
3,B3,0.514
4,B4,0.9
5,B5,0.325
6,B6,1.24

# Target: antibody 3BNC117
# Assay: as above
# Method: as §1
row,Binder,neutralization IC80 [µg/mL]
1,B1,> 50
2,B2,> 50
3,B3,> 50
4,B4,> 50
5,B5,> 50
6,B6,> 50
